Laboratory results as given in patent US20240000756A1, “METHODS AND COMPOUNDS FOR TREATMENT OF AUTISM SPECTRUM DISORDER” (Crestone, Inc., priority 2020, published 2024).

System: normal gut flora
Assay: Phase 1b study, effect on fecal microbiome
Format: in vivo, human

Structure (SMILES): O=c1cc(NCCCN[C@@H]2CCOc3c(Br)cc(Br)cc32)[nH]c2ccsc12 [CRS3123]
- effect on proportion of Bacteroidetes (400 mg BID): an increase in the proportion of Bacteroidetes
- effect on proportion of Bacteroidetes (600 mg BID): an increase in the proportion of Bacteroidetes
